Anti-infective test results gathered from many reports (values: NIAID ChemDB through PubChem).

All rows: tests in culture; agent: Mycobacterium avium complex

Blank or dashed fields: not listed here. Lines come from different laboratories, so protocols vary. A number after MIC or MFC names an inhibition level or a share of isolates. Percent inhibition refers to the dose given; in toxicity tests it is the harm to the cells. ECn is the concentration giving n% inhibition of infection, replication or growth.

SMILES | strain | read by | read-out | dose | value
NC[C@H]1O[C@H](O[C@H]2[C@H](O)[C@@H](O[C@H]3O[C@H](CO)[C@@H](O)[C@H](N)[C@H]3O)[C@H](N)C[C@@H]2N)[C@H](O)[C@@H](O)[C@@H]1O | Isolate C-31 |  | MIC |  | ≥400 µg/mL
COc1c(N2CCN(C(C)C)CC2)c(F)cc2c(=O)c(C(=O)O)cn(C3CC3)c12 | 14 strains |  | MIC90 |  | 8 µg/mL
CO[C@H]1/C=C/O[C@@]2(C)Oc3c(C)c(O)c4c(O)c(c5c(c4c3C2=O)NC2(CCN(CC(C)C)CC2)N=5)=NC(=O)/C(C)=C\C=C\[C@H](C)[C@H](O)[C@@H](C)[C@@H](O)[C@@H](C)[C@H](OC(C)=O)[C@@H]1C | 26 isolates (HIV+) |  | MIC90 |  | 1 µg/mL
CO[C@H]1/C=C/O[C@@]2(C)Oc3c(C)c(O)c4c(O)c(c5c(c4c3C2=O)NC2(CCN(CC(C)C)CC2)N=5)=NC(=O)/C(C)=C\C=C\[C@H](C)[C@H](O)[C@@H](C)[C@@H](O)[C@@H](C)[C@H](OC(C)=O)[C@@H]1C | 595-5 |  | MIC |  | 0.5 µg/mL
CC(C)N=c1cc2n(-c3ccc(Cl)cc3)c3ccccc3nc-2cc1Nc1ccc(Cl)cc1 | 14 strains | agar | EC50 |  | <1 µg/mL
CCN1CCN(c2cc3c(cc2F)c(=O)c(C(=O)O)cn3C2CC2)CC1 | 14 strains |  | MIC90 |  | 4 µg/mL
NC(=O)c1cnccn1 | 713 strains | agar | EC50 |  | >25 µg/mL
CC(C)N1CCN(c2cc3c(cc2F)c(=O)c(C(=O)O)cn3-c2ccc(F)cc2F)CC1 | 14 strains |  | MIC90 |  | >32 µg/mL
C[C@@H]1CN(c2c(F)c(N)c3c(=O)c(C(=O)O)cn(C4CC4)c3c2F)C[C@H](C)N1 | 25 | broth dilution | MIC |  | 0.12 µg/mL
NCC[C@H](O)C(=O)N[C@@H]1C[C@H](N)[C@@H](O[C@H]2O[C@H](CN)[C@@H](O)[C@H](O)[C@H]2O)[C@H](O)[C@H]1O[C@H]1O[C@H](CO)[C@@H](O)[C@H](N)[C@H]1O | 542/HIV+ |  | MIC |  | <0.61 µg/mL
CC[C@@H](CO)NCCN[C@@H](CC)CO | 9141 |  | MBC |  | 60 µg/mL
Nc1ccc(C(=O)O)c(O)c1 | 155 strains | agar | inhibition | 2 µg/mL | 4%
NC1CC2CCC(C1)N2c1nc2c(cc1F)c(=O)c(C(=O)O)cn2C1CC1 | 14 strains |  | MIC50 |  | 4 µg/mL
CN[C@@H]1[C@@H](O)[C@@H](O[C@@H]2[C@@H](O)[C@H](O[C@H]3O[C@H](CN)CC[C@H]3N)[C@@H](N)C[C@H]2N)OC[C@]1(C)O | 20 strains | agar | EC50 |  | <4 µg/mL
CC(C)N=c1cc2n(-c3ccc(Cl)cc3)c3ccccc3nc-2cc1Nc1ccc(Cl)cc1 | 542/HIV+ |  | MIC |  | <0.12 µg/mL
CCC1CN(c2c(F)cc3c(=O)c(C(=O)O)cn(C4CC4)c3c2Cl)CCN1 | 14 strains |  | MIC90 |  | 4 µg/mL

The first 2 rows once more:

| SMILES | strain | read by | read-out | dose | value |
|---|---|---|---|---|---|
| NC[C@H]1O[C@H](O[C@H]2[C@H](O)[C@@H](O[C@H]3O[C@H](CO)[C@@H](O)[C@H](N)[C@H]3O)[C@H](N)C[C@@H]2N)[C@H](O)[C@@H](O)[C@@H]1O | Isolate C-31 |  | MIC |  | ≥400 µg/mL |
| COc1c(N2CCN(C(C)C)CC2)c(F)cc2c(=O)c(C(=O)O)cn(C3CC3)c12 | 14 strains |  | MIC90 |  | 8 µg/mL |